Structures are written as SMILES. pKi: −log10 of the molar value.

This assay in a line: Inhibition of HIV1 reverse transcriptase. Details: species or system Human immunodeficiency virus 1. Summed up: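 HIV reverse transcriptase (type B, 66 kDa subunit) at 2 nM with 1 µg/mL primed poly(A) RNA and 5 µM dTTP, in 50 mM Tris-HCl pH 8.1, 6.5 mM MgCl2, 100 mM NaCl and 10 mM DTT. Compounds were tested up to 500 µM final. Reactions were started with enzyme, run 10 min at 37 °C and stopped with EDTA. DNA was read by PicoGreen fluorescence (ex 480/em 538 nm), with no-enzyme or no-dTTP blanks. Percent inhibition was blank-corrected; Ki came from titration fitted to a competitive model.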

A word on the pKi: it is −log10 of the Ki, conventionally taken in molar units. Read a high pKi as a low Ki. Molecule `Cc1cn([C@@H]2C[C@@H](N=[N+]=[N-])[C@H](COP(=O)(O)OP(=O)(O)C(F)(F)P(=O)(O)F)O2)c(=O)[nH]c1=O` showed a pKi of 6.07.

For the origin of these results see ChEMBL document CHEMBL1149314, “Synthesis of AZT 5'-triphosphate mimics and their inhibitory effects on HIV-1 reverse transcriptase” (J Med Chem, 2004).
